## Share of PSTVd loop 15 variants by leaf site

Reference: Wu et al. 2024, doi:10.1371/journal.ppat.1012142.

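Three N. benthamiana plants were inoculated with the whole mutant pool. Samples came from the inoculated region at 5 days, the leaf margin at 10 and upper systemic leaves at 12.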

The pool varies loop 15 of the PSTVd intermediate strain in the pattern GGAAACCGNNNNNNC; wild type is GGAAACCGCUACUAC (upper and lower strand joined, each 5' to 3', the first 7 letters being the upper strand, closing pairs included).

Numbers give reads per thousand; 0 = not seen among the reads, higher = more abundant. Each site shows the three plants. "Pool" is the share in the plasmid pool used as inoculum, on the same scale. The inoculated region was read from the minus strand, the other sites from the plus strand.

* GGAAACCGUUCAAUC (pool 0.192) = inoculated region 0.246 / 0.289 / 0.209; leaf margin 0.146 / 0.0668 / 0.140; systemic leaves 0.0322 / 0 / 0
* GGAAACCGUGAGCCC (pool 0.208) = inoculated region 0.0491 / 0.0482 / 0.0952; leaf margin 0.0162 / 0.0223 / 0; systemic leaves 0 / 0 / 0
* GGAAACCGUUCGGUC (pool 0.320) = inoculated region 0.278 / 0.129 / 0.457; leaf margin 0.0808 / 0.0445 / 0.120; systemic leaves 0.0483 / 0 / 0
* GGAAACCGUAUGAUC (pool 0.256) = inoculated region 0.262 / 0.257 / 0.228; leaf margin 0 / 0 / 0.0200; systemic leaves 0 / 0 / 0
* GGAAACCGAUCCUCC (pool 0.272) = inoculated region 0.147 / 0.193 / 0.171; leaf margin 0 / 0 / 0; systemic leaves 0.0161 / 0 / 0
* GGAAACCGAAACUCC (pool 0.0960) = inoculated region 0.0655 / 0.0161 / 0.0952; leaf margin 0 / 0 / 0; systemic leaves 0 / 0 / 0
* GGAAACCGAUAUACC (pool 0.160) = inoculated region 0.131 / 0.209 / 0.0762; leaf margin 0.0162 / 0 / 0; systemic leaves 0.0161 / 0 / 0
* GGAAACCGACCGCAC (pool 0.160) = inoculated region 0.0819 / 0.0161 / 0.152; leaf margin 0 / 0 / 0.0401; systemic leaves 0 / 0 / 0.0228
* GGAAACCGUCGAACC (pool 0.176) = inoculated region 0.0491 / 0.0964 / 0.0381; leaf margin 0 / 0 / 0; systemic leaves 0 / 0 / 0
* GGAAACCGGCCGAGC (pool 0.224) = inoculated region 0.0491 / 0 / 0.0571; leaf margin 0.0323 / 0.0223 / 0; systemic leaves 0 / 0 / 0
* GGAAACCGCAUUCAC (pool 0.128) = inoculated region 0.0491 / 0.161 / 0.114; leaf margin 0 / 0 / 0; systemic leaves 0 / 0 / 0
* GGAAACCGGGUUUGC (pool 0.160) = inoculated region 0.0819 / 0.0803 / 0.114; leaf margin 0.0162 / 0 / 0.0200; systemic leaves 0 / 0 / 0
* GGAAACCGCUGCGGC (pool 0.192) = inoculated region 0.0819 / 0.0964 / 0.114; leaf margin 0 / 0.0223 / 0.0401; systemic leaves 0 / 0 / 0
* GGAAACCGACCGUUC (pool 0.336) = inoculated region 0.901 / 0.755 / 0.609; leaf margin 0.113 / 0 / 0.0801; systemic leaves 0.0644 / 0.0908 / 0.0228
* GGAAACCGAGGGGUC (pool 0.128) = inoculated region 0.115 / 0.145 / 0.0571; leaf margin 0 / 0.0445 / 0.0200; systemic leaves 0 / 0 / 0
* GGAAACCGGGGGUCC (pool 0.320) = inoculated region 0.0819 / 0.0964 / 0.0571; leaf margin 0 / 0 / 0.0401; systemic leaves 0.0161 / 0 / 0.0228
* GGAAACCGCUUACAC (pool 0.240) = inoculated region 0.0983 / 0.0964 / 0.152; leaf margin 0 / 0 / 0.0401; systemic leaves 0 / 0 / 0.0228
* GGAAACCGAUUGUGC (pool 0.272) = inoculated region 0.311 / 0.257 / 0.362; leaf margin 0.162 / 0.156 / 0.160; systemic leaves 0.0322 / 0 / 0
* GGAAACCGGCUAGUC (pool 0.208) = inoculated region 0.0491 / 0.0643 / 0.133; leaf margin 0 / 0 / 0.0200; systemic leaves 0.0161 / 0 / 0
* GGAAACCGGGCACCC (pool 0.368) = inoculated region 0.0655 / 0.0964 / 0.133; leaf margin 0 / 0 / 0; systemic leaves 0 / 0 / 0
* GGAAACCGAAGGAUC (pool 0.240) = inoculated region 0.131 / 0.112 / 0.152; leaf margin 0 / 0.0223 / 0; systemic leaves 0 / 0 / 0
* GGAAACCGGUCACGC (pool 0.192) = inoculated region 0.115 / 0.112 / 0.152; leaf margin 0.0323 / 0 / 0; systemic leaves 0.0161 / 0 / 0
* GGAAACCGAUCCCCC (pool 0.208) = inoculated region 0.164 / 0.0964 / 0.133; leaf margin 0 / 0.0445 / 0.0401; systemic leaves 0 / 0 / 0
* GGAAACCGAUAGGCC (pool 0.240) = inoculated region 0.115 / 0.0803 / 0.152; leaf margin 0 / 0 / 0; systemic leaves 0 / 0 / 0.0228
* GGAAACCGACCCUGC (pool 0.192) = inoculated region 0.164 / 0.129 / 0.0571; leaf margin 0 / 0 / 0.0200; systemic leaves 0 / 0 / 0
* GGAAACCGACGAGCC (pool 0.128) = inoculated region 0.0655 / 0.0803 / 0.114; leaf margin 0 / 0.0223 / 0.0200; systemic leaves 0.0161 / 0 / 0
* GGAAACCGAUAGAUC (pool 0.176) = inoculated region 0.344 / 0.305 / 0.362; leaf margin 0.162 / 0.0223 / 0.0801; systemic leaves 0.0322 / 0.0454 / 0.160
* GGAAACCGGGCUUUC (pool 0.0800) = inoculated region 0.0983 / 0.129 / 0.171; leaf margin 0.0162 / 0 / 0.0200; systemic leaves 0 / 0 / 0.0228
* GGAAACCGCUAUUAC (pool 16.3) = inoculated region 38.3 / 41.3 / 46.6; leaf margin 35.7 / 33.1 / 43.9; systemic leaves 35.8 / 39.1 / 38.1
* GGAAACCGCGUACAC (pool 0.240) = inoculated region 0.147 / 0.0482 / 0.0952; leaf margin 0 / 0 / 0.0200; systemic leaves 0 / 0 / 0
* GGAAACCGUUCACAC (pool 0.224) = inoculated region 0.328 / 0.337 / 0.286; leaf margin 0.113 / 0.0668 / 0.120; systemic leaves 0.0644 / 0.106 / 0.0684
* GGAAACCGGGUUAAC (pool 0.240) = inoculated region 0.0328 / 0.0482 / 0.0571; leaf margin 0 / 0 / 0.0200; systemic leaves 0 / 0 / 0
* GGAAACCGUUAAUCC (pool 0.288) = inoculated region 0.360 / 0.289 / 0.248; leaf margin 0.146 / 0.0223 / 0.200; systemic leaves 0.0322 / 0 / 0.114
* GGAAACCGCUUAUCC (pool 0.208) = inoculated region 0.115 / 0.161 / 0.171; leaf margin 0.0162 / 0 / 0; systemic leaves 0 / 0 / 0
* GGAAACCGAUGGUGC (pool 0.192) = inoculated region 0.229 / 0.177 / 0.305; leaf margin 0.162 / 0.0223 / 0.240; systemic leaves 0.0322 / 0.0605 / 0.114
* GGAAACCGAAGACCC (pool 0.208) = inoculated region 0.115 / 0.112 / 0.0190; leaf margin 0 / 0 / 0; systemic leaves 0 / 0 / 0
* GGAAACCGAGCUACC (pool 0.0800) = inoculated region 0.0655 / 0.0643 / 0.0381; leaf margin 0 / 0 / 0.0200; systemic leaves 0 / 0 / 0

A selection of 2 entries from above:

{"sequence": "GGAAACCGUAUGAUC", "pool": "0.256", "inoculated region": "0.262 / 0.257 / 0.228", "leaf margin": "0 / 0 / 0.0200", "systemic leaves": "0 / 0 / 0"}
{"sequence": "GGAAACCGUCGAACC", "pool": "0.176", "inoculated region": "0.0491 / 0.0964 / 0.0381", "leaf margin": "0 / 0 / 0", "systemic leaves": "0 / 0 / 0"}

Wild type was 33.9 per thousand in the pool and the most common sequence in every sample (inoculated region 202, 200, 159; leaf margin 724, 746, 710; systemic leaves 856, 883, 880). Samples held 43,870 to 66,106 reads, so the smallest values rest on one or two reads. The authors trace changes outside the varied positions to PCR and sequencing errors or to mutation in the plant; presence does not show that a variant is infectious alone.